Tested on: IgG in human sera from Colombian cohorts
Test: Indirect ELISA, seroreactivity of human sera (IgG) to peptides
Format: binding
Conditions: for Frequency of seroreactivity to CRP1: sera 1/400; for Frequency of antibodies to SD1CLIPS: sera 1:200

## KKYISEKKQEWDKQKTKYENKYVGKSASDLLKEN [CRP1]
VAR2CSA-seropositive men and children, Tierralta (40/70)
  Frequency of seroreactivity to CRP1: 57%
VAR2CSA-seropositive non-pregnant cohort, Puerto Libertador (34/67), cut-off mean AU + 2 SD of 12 unexposed Colombians
  Frequency of seroreactivity to CRP1: 50.7%
VAR2CSA-seropositive pregnant women, Puerto Libertador (26/56)
  Frequency of seroreactivity to CRP1: 46%
Negative control sera, Medellín, no exposure to malaria (one of 12, low reactivity)
  Frequency of seroreactivity to CRP1: 8.3%

## C(T2-013)NYKRKRRERDWDCNTKKDVCIPDRRYQLC(T2-013)K(Aoa) (sidechain bridge or staple) [SD1CLIPS, reference compound]
VAR2CSA-seropositive non-pregnant population (34/67)
  Frequency of antibodies to SD1CLIPS: 50.7%
VAR2CSA-seropositive non-pregnant population (44/70)
  Frequency of antibodies to SD1CLIPS: 62.8%
VAR2CSA-seropositive pregnant women (30/56)
  Frequency of antibodies to SD1CLIPS: 53.6%

From article PMC10312377, “A conserved epitope in VAR2CSA is targeted by a cross-reactive antibody originating from Plasmodium vivax Duffy binding protein” (Frontiers in Cellular and Infection Microbiology, 2023)
